System: JNPL3 P301L tangle mice
Assay: ELISA of plasma antibody response in immunized JNPL3 P301L mice
Type: in vivo, mouse
Settings: binding to an unrelated tau epitope linked via GPSL to TT947-967; plasma 1:200

| Substance | antibody response against the tetanus toxin epitope |
| --- | --- |
| IGS*TE | A good portion of that antibody response is generated against the tetanus toxin epitope |
| SRT*PS*LP | strong antibody response |
